Patent US20230278997A1, “BICYCLO[1.1.1]PENTANE COMPOUNDS FOR THE TREATMENT AND PROPHYLAXIS OF HEPATITIS B VIRUS INFECTION” (Hoffmann-La Roche Inc., priority 2020, published 2023)

Columns and labels:
HBeAg = assay: PHH natural infection assay, HBeAg (alphalisa); assay type: cell-based; details: read-out: HBeAg IC50; HBV-infected PHH, supernatant
HBsAg = assay: PHH natural infection assay, HBsAg (alphalisa); assay type: cell-based; details: read-out: HBsAg IC50; HBV-infected PHH, supernatant

Substance	IC50 (HBeAg)	IC50 (HBsAg)
N-[3-[3-(4-chlorophenyl)-1,2,4-oxadiazol-5-yl]-1-bicyclo[1.1.1]pentanyl]-2-(1-methyl-1-methylsulfonyl-propyl)pyridine-4-carboxamide	560 nM	770 nM
N-[3-[3-(4-chlorophenyl)-1,2,4-oxadiazol-5-yl]-1-bicyclo[1.1.1]pentanyl]-3-(1-methyl-2-methylsulfonyl-ethyl)benzamide	370 nM	470 nM
N-[3-[3-(4-chlorophenyl)-1,2,4-oxadiazol-5-yl]-1-bicyclo[1.1.1]pentanyl]-6-(1-methyl-1-methylsulfonyl-propyl)pyridine-2-carboxamide	470 nM	720 nM
